{"source": "patent US8932597B2", "about": "(priority 2008, dated 2015)", "system": "HuM2e antibody 8I10", "test": "CLIPS (PepScan) peptide ELISA, binding to antibody 8I10", "parameters": "species or system human", "conditions": "concentration not given"}
{"sequence": "CSLLTEVGSLLTEV", "values": [{"measurement": "Binding to 8I10 (in words)", "value": "best 8I10 binder"}]}
